Results from ChEMBL document CHEMBL1147176, “Synthesis of S-dialkylarsino-3-mercapto-1,2-propanediols and evaluation of their anticancer activity” (2007).

Columns and labels:
SK-MEL-28 = assay: Anticancer activity against human SK-MEL-28 cells assessed as growth inhibition; format: functional
In short: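 NCI in vitro disease-oriented human tumor cell screen, about 60 lines. Growth inhibition read as pGI50, the -log of the molar concentration inhibiting 50% net cell growth. A mean graph midpoint is the arithmetic mean over all tested lines. Where the effect was not reached within the concentration interval, the highest tested concentration was used.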

SNB-75 = assay: Anticancer activity against human SNB75 cells assessed as growth inhibition; format: functional, cell-based
SK-MEL-2 = assay: Anticancer activity against human SK-MEL-2 cells assessed as growth inhibition; format: functional, cell-based
UACC-257 = assay: Anticancer activity against human UACC257 cells assessed as growth inhibition; format: functional, cell-based
MDA-MB-231 = assay: Anticancer activity against human MDA-MB231/ATCC cells assessed as growth inhibition; format: functional, cell-based

Structure (SMILES)	GI50 (SK-MEL-28)	GI50 (SNB-75)	GI50 (SK-MEL-2)	GI50 (UACC-257)	GI50 (MDA-MB-231)
CC(C)[As](SCC(O)CO)C(C)C (centres undefined)	1200 nM				
CC[As](CC)SCC(O)CO (centres undefined)	132 nM				
CCC[As](CCC)SCC(O)CO (centres undefined)	155 nM				
C[As](C)SCC(O)CO (centres undefined)	282 nM				
CC(=O)OCC(CS[As](C)C)OC(C)=O (centres undefined)	2450 nM	2290 nM	708 nM	102 nM	141 nM
